The record followed here is publication PMC8630636, “Fis Connects Two Sensory Pathways, Quorum Sensing and Surface Sensing, to Control Motility in Vibrio parahaemolyticus”.

Tags and fusion partners may be left off the protein sequences shown. The exact form of at least one protein or probe is not confirmed. At least one verdict rests on a figure or table, not on a statement of the authors.

The data set deals with T1, Fis (Vibrio parahaemolyticus RIMD2210633) (UniProt P64128).
T1 sequence (looked up): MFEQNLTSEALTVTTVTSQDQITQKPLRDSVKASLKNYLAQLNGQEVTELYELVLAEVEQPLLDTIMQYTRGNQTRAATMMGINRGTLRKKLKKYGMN
As to the kind of experiment: EMSA. Particulars: 10 mM Tris, 150 mM KCl, 0.1 mM DTT, 0.1 mM EDTA, 5% PEG, pH 7.4, 20 min at room temperature, 30 ng DNA, 6% native gel in 1x TAE at 4 C, recombinant protein, residues 1-98. (In EMSA bound probe runs differently from free probe, usually more slowly.)

With “CTACTTTAGATCTCGCTATATATGGTCTAAAAATTAACTGTTCATTTAAA (double strand) [PscrA_WT]”, the binding result is recorded as “binds”.
“GATAACATGAATAAGATAAACCCATATTTTAAAGTGAATTCAAAAATTGA (double strand) [PgntK_WT (probe 2)]”: the binding result (non-specific binding not ruled out) is recorded as “binds”.
With “CCTTCTTAAGCCGAGGGTCACCTAGCCAACTGACGTTGTTAGTGAA (double strand) [Qrr3coding_WT]”, the binding result is listed as “binds”.
As to “TTTGTGCCCCTAGTTATTGGAATTTAAGATGTACTGAAACATTAATTCGCATTATAAAATAAGTAATGGCGAACTGCTATTGTTTTAGGTCAAAAATTTGCTTTTTCTTTAACCAATGTTGCCTTTTGCAACCAGTTTTACGTTTGCTTTACGC (double strand) [PnagB probe 1]”, under “probe letters rebuilt from the primers and the genome”, the binding result was “binds”.
